Pooled drug test results. Numbers come from NIAID ChemDB, via PubChem.

All rows: enzyme or target tests

Percent inhibition refers to the dose given; in toxicity tests it is the harm to the cells. Two numbers with a dash give a range or band. ICn: concentration for n% inhibition. Fold resistance has wild type as its base. An empty or dashed field is not shown. Neighbouring rows are from separate reports.

compound | target | strain or isolate | species | changes | measure | dose | method | result
N[C@@H](Cc1ccccc1)C(=O)N[C@@H](CO)C(=O)N[C@@H](Cc1ccccc1)[C@@H](O)C(=O)NCC1CCCCC1 | Protease | - | HIV-1 | - | inhibition | 1000 µM | - | 41.1%
C=Cc1c(C)c2cc3[nH]c(cc4nc(cc5nc(cc1[nH]2)C(C)=C5CCC(=O)OC)C(CCC(=O)OC)=C4C)c(C)c3C=C | gp120 | - | HIV-1 | - | IC50 | - | - | >60 µg/mL
Nc1nc2c(ncn2[C@H]2CC[C@@H](COP(=O)(O)OP(=O)(O)OP(=O)(O)O)O2)c(=O)[nH]1 | Reverse transcriptase | - | HIV | RT-K65R | fold resistance | - | nucleotide incorporation / radiometric | 4.16
CC(=O)c1ccc(C(=O)Nc2ccc(-c3nc4ccc(NC(=O)c5ccc(C(C)=O)cc5)cc4[nH]3)cc2)cc1 | Rev:RRE | - | HIV-1 | - | IC50 | - | scintillation proximity / radiometric | 6.7 µM
COc1ccc(OC)c(C/C=C(\C)CC/C=C(\C)CC/C=C(\C)CC/C=C(\C)CC/C=C(\C)CCC=C(C)C)c1 | Reverse transcriptase | - | HIV-2 | - | IC50 | - | nucleotide incorporation | 12.8 µM
CC(CO)(CO)NC(=O)[C@@H]1CCCN1C(=O)[C@@H](O)[C@H](Cc1ccccc1)NC(=O)[C@H](CS(C)(=O)=O)NC(=O)COc1cccc2ccccc12 | Protease | - | HIV-1 | - | inhibition | 0.05 µM | - | 32.1%
Nc1nc2c(ncn2[C@H]2CC[C@@H](COP(=O)(O)OP(=O)(O)OP(=O)(O)OP(=O)(O)OC[C@@H]3CC[C@H](n4cnc5c(=O)[nH]c(N)nc54)O3)O2)c(=O)[nH]1 | Reverse transcriptase | - | HIV | RT-D67N K70R T215Y K219Q | fold resistance | - | nucleotide incorporation / radiometric | 0.325
CCN1c2ncc(CCOc3ccc(/C=C(\C)C(=O)O)c4ccccc34)cc2C(=O)N(C)c2cccnc21 | Reverse transcriptase | - | HIV-1 | RT-V106A | fold resistance | - | nucleotide incorporation / radiometric | >10
COc1ccc(C[C@H](NC(=O)C(=O)N[C@@H](Cc2ccc(OC)cc2)C(=O)OCC(C)C)C(=O)OCC(C)C)cc1 | Protease | - | HIV-1 | - | inhibition | 10 µM | absorbance | <10%
C=CC1=C(C)C2=NC1=CC1=NC(=CC3=C(C)C(=C([O-])[O-])C(=N3)C(CC(=O)O)=C3NC(=C2)C(C)C3CCC(=O)O)C(CC)=C1C.[Mg+2] | gp120 | - | HIV-1 | - | IC50 | - | - | <60 µg/mL
CC1(C)c2nc(C(=O)NCc3ccc(F)cc3)c(O)c(=O)n2CCN1Cc1cocn1 | Integrase | - | HIV-1 | - | IC50 | - | ELISA | <10 µM
Cc1cc(S(=O)(=O)/[NH+]=C2/N=C3C=C(c4ccccc4)SC3C(=O)N2Cc2ccccc2)c(S)cc1Cl | Integrase | - | HIV | - | IC50 | - | strand transfer | 6 µM
COC(=O)CNC(=O)c1cn2ccn(Cc3cccc(Cl)c3)c(=O)c2c(O)c1=O | Integrase | - | HIV-1 | - | IC50 | - | ELISA | 0.01–0.1 µM
Cc1cc(S(=O)(=O)NC2=NC3C=CSC3C(=O)N2)c(SCOc2ccccc2)cc1Cl | Integrase | - | HIV | - | IC50 | - | strand transfer | 70 µM
CN(CC1c2nc(C(=O)NCc3ccc(F)cc3)c(O)c(=O)n2CCN1C)C(=O)c1ccccn1 | Integrase | - | HIV-1 | - | IC50 | - | ELISA | <10 µM
O=C(O)CCN1C(=O)/C(=C\c2ccc(-c3cccc([N+](=O)[O-])c3)o2)SC1=S | Rev:RRE | - | HIV-1 | - | IC50 | - | scintillation proximity / radiometric | 2.9 µM
O=c1c(-c2ncn[nH]2)cn2ccn(Cc3cccc(Cl)c3)c(=O)c2c1O | Integrase | - | HIV-1 | - | IC50 | - | ELISA | 0.01–0.1 µM
Cc1ccc(Cn2cccc2/C=C/C(=O)CC(=O)C(=O)O)c(C)c1 | RNase H | - | HIV-1 | N474A | inhibition | 100 µM | substrate cleavage / fluorescence | 16%
CCN1c2ncc(CCOc3ccc(/C=C(\C)C(=O)O)c4ccccc34)cc2C(=O)Nc2c(C)cc(Cl)nc21 | Reverse transcriptase | - | HIV-1 | RT-K103N Y181C | fold resistance | - | nucleotide incorporation / radiometric | 1–10
CN1CCn2c(nc(C(=O)NCc3ccc(F)cc3)c(O)c2=O)C(N(C)C(=O)C(=O)N2CCCC2)C1 | Integrase | - | HIV-1 | - | IC50 | - | ELISA | <10 µM
Nc1nc2c(ncn2[C@H]2CC[C@@H](COP(=O)(O)OP(=O)(O)OP(=O)(O)OP(=O)(O)OC[C@H]3O[C@@H](n4cnc5c(N)ncnc54)[C@H](O)[C@@H]3O)O2)c(=O)[nH]1 | Reverse transcriptase | - | HIV | RT-D67N K70R T215Y K219Q | fold resistance | - | nucleotide incorporation / radiometric | 0.108
Nc1ncnc2c1ncn2[C@H]1CC[C@@H](COP(=O)(O)OP(=O)(O)OP(=O)(O)O)O1 | Reverse transcriptase | - | HIV | RT-L74V T215Y | fold resistance | - | - | 5
CC(=O)Nc1ccc(-c2nc3ccc(-c4ccc5nc(-c6ccc(NC(C)=O)cc6)[nH]c5c4)cc3[nH]2)cc1 | Rev:RRE | - | HIV-1 | - | IC50 | - | scintillation proximity / radiometric | 4.6 µM
CC(C)[C@H](N)C(=O)N[C@H](C(=O)N[C@@H](Cc1ccccc1)[C@@H](O)C(=O)N[C@H](Cc1ccccc1)C(=O)N[C@@H](C(=O)N[C@@H](C(N)=O)C(C)C)C(C)C)C(C)C | Protease | - | HIV-1 | - | inhibition | 1000 µM | - | 71.7%
CN1CCn2c(nc(C(=O)NCc3ccc(F)cc3)c(O)c2=O)C(N(C)S(C)(=O)=O)C1 | Integrase | - | HIV-1 | - | IC50 | - | ELISA | <10 µM
CC(C)[C@H](NC(=O)[C@H](Cc1ccccc1)NC(=O)N[C@@H](Cc1ccccc1)C(=O)N[C@H](C(=O)O)C(C)C)C(=O)O | Protease | - | HIV-1 | - | inhibition | 10 µM | absorbance | <10%
O=C(O)CCC1=C(CC(=O)O)c2cc3nc(cc4[nH]c(cc5[nH]c(cc1n2)c(CC(=O)O)c5CCC(=O)O)c(CC(=O)O)c4CCC(=O)O)C(CC(=O)O)=C3CCC(=O)O | gp120 | - | HIV-1 | - | inhibition | 60 µg/mL | - | 41.1%
Nc1ccn([C@@H]2O[C@H](CO)[C@@H](OP(=O)(O)OC[C@H]3O[C@@H](n4cnc5c(=O)[nH]c(N)nc54)[C@H](O)[C@@H]3O)[C@H]2O)c(=O)n1 | RNase H | - | HIV-1 | - | inhibition | 50 µM | RNase H | 37%
COc1ccnc2[nH]cc(C(=O)C(=O)N3CCN(C(=O)c4ccccc4)C[C@H]3C)c12 | gp120 | NL4-3 | HIV-1 | GP120-R350K | fold resistance | - | ELISA | 1
CC(C)(C)c1ccc(S(=O)(=O)Nc2cccc(-c3nc4ccccc4[nH]3)c2)cc1 | gp120 + CD4 | - | HIV-1 | - | IC50 | - | ELISA / entry | 0.02535 µM
CC(C)NC(=O)c1cn2ccn(Cc3cccc(Cl)c3)c(=O)c2c(O)c1=O | Integrase | - | HIV-1 | - | IC50 | - | ELISA | 0.01–0.1 µM
O=[N+]([O-])c1ccccc1S(=O)(=O)Nc1ccc(-c2nc3ccccc3[nH]2)cc1 | gp120 + CD4 | - | HIV-1 | - | IC50 | - | ELISA / entry | 0.02877 µM
CC(C)(C)NC(=O)[C@@H]1CSCN1C(=O)[C@@H](O)[C@H](Cc1ccccc1)NC(=O)[C@H](CS(C)(=O)=O)NC(=O)COc1cccc(C(=O)N2CCOCC2)c1 | Protease | - | HIV-1 | - | inhibition | 0.05 µM | - | 55.5%
NC(=O)c1ccn2c1CS[C@@H]2c1cccnc1 | Tat:TAR/LTR | - | HIV-1 | - | inhibition | 100 µM | - | ~39%
CC(C)COC(=O)[C@H](Cc1ccccc1)NC(=O)CCC(=O)N[C@@H](Cc1ccccc1)C(=O)OCC(C)C | Protease | - | HIV-1 | - | inhibition | 10 µM | absorbance | 23%
O=C(O)CCN1C(=O)/C(=C\c2ccc(-c3cc(Cl)ccc3Cl)o2)SC1=S | Rev:RRE | - | HIV-1 | - | IC50 | - | scintillation proximity / radiometric | 4 µM
CC(C)=CCN1Cc2cccc3[nH]c(=S)n(c23)C[C@@H]1C | Reverse transcriptase | - | HIV | RT-V60T | IC50 | - | nucleotide incorporation | 1.4 µM
O=C(Nc1ccc(-c2nc3ccc(NC(=O)c4ccccc4)cc3[nH]2)cc1)c1ccccc1 | Rev:RRE | - | HIV-1 | - | IC50 | - | scintillation proximity / radiometric | >90 µM
CC1(C)c2nc(C(=O)NCc3ccc(F)cc3)c(O)c(=O)n2CCN1Cc1cn[nH]n1 | Integrase | - | HIV-1 | - | IC50 | - | ELISA | <10 µM
O=C(Nc1ccc(-c2nc3ccc(NC(=O)c4ccc(Cl)cc4)cc3[nH]2)cc1)c1ccc(Cl)cc1 | Rev:RRE | - | HIV-1 | - | IC50 | - | scintillation proximity / radiometric | 2.2 µM
Nc1nc2c(ncn2[C@H]2CO[C@@H](COP(=O)(O)OP(=O)(O)OP(=O)(O)O)O2)c(=O)[nH]1 | Reverse transcriptase | - | HIV | RT-K65R K103N | Ki | - | radiometric | 0.034 µM
CCN1c2ncc(CCOc3ccc(C(C)C(=O)O)c4ccccc34)cc2C(=O)N(C)c2cccnc21 | Reverse transcriptase | - | HIV-1 | RT-V106A | fold resistance | - | nucleotide incorporation / radiometric | >10
CC(C)=CCN1Cc2cccc3[nH]c(=S)n(c23)C[C@@H]1C | Reverse transcriptase | - | HIV | - | Ki | - | nucleotide incorporation | 0.63 µM
O=C1c2c(O)c(=O)c(-c3nccs3)cn2CCN1Cc1ccc(F)c(F)c1 | Integrase | - | HIV-1 | - | IC50 | - | ELISA | 0.01–0.1 µM
O=C(/C=C/c1cccn1Cc1ccccc1Cl)CC(=O)C(=O)O | RNase H | - | HIV-1 | Y501A | inhibition | 100 µM | substrate cleavage / fluorescence | 20%
Cc1cn([C@H]2CC[C@@H](COP(=O)(O)OP(=O)(O)OP(=O)(O)O)O2)c(=O)[nH]c1=O | Reverse transcriptase | - | HIV | RT-K65R | fold resistance | - | nucleotide incorporation / radiometric | 5.55
CC[C@@H](C)[C@H](NC(=O)[C@@H]1CCCN1C(=O)[C@@H](O)[C@H](Cc1ccccc1)NC(=O)[C@H](CC(N)=O)NC(=O)COc1ccccc1)C(=O)N[C@H](C(N)=O)C(C)C | Protease | - | HIV-1 | - | inhibition | 5 µM | - | 98.8%
CC(C)COC(=O)[C@H](Cc1ccccc1)NC(=O)[C@H](O)[C@@H](O)C(=O)N[C@@H](Cc1ccccc1)C(=O)OCC(C)C | Protease | - | HIV-1 | - | inhibition | 10 µM | absorbance | <10%
O=C(NCc1ccc(F)cc1)c1nc2n(c(=O)c1O)CCN(Cc1ccccc1)CC2 | Integrase | - | HIV-1 | - | IC50 | - | ELISA | <10 µM
CCNc1cn2ccn(Cc3cccc(Cl)c3)c(=O)c2c(O)c1=O | Integrase | - | HIV-1 | - | IC50 | - | ELISA | 0.01–0.1 µM
CCCC[C@H](NC(=O)[C@H](C)NC(=O)[C@H](CCC(=O)O)NC[C@H](Cc1ccccc1)NC(=O)[C@H](CC(C)C)NC(=O)[C@@H](NC(=O)[C@@H](N)CCCN=C(N)N)C(C)C)C(N)=O | Protease | - | HIV | PR-L90M | IC50 | - | HPLC | <0.075 µM
O=C1c2c(O)c(=O)c(-c3ccccn3)cn2CCN1CCCc1c(F)cccc1Cl | Integrase | - | HIV-1 | - | IC50 | - | ELISA | 0.01–0.1 µM
CC(C)(C)c1ccc(S(=O)(=O)Nc2ccc(Cc3nc4ccccc4[nH]3)cc2)cc1 | gp120 + CD4 | - | HIV-1 | - | IC50 | - | ELISA / entry | 0.02174 µM
Nc1ccn([C@H]2CC[C@@H](COP(=O)(O)OP(=O)(O)OP(=O)(O)O)O2)c(=O)n1 | Reverse transcriptase | - | HIV | RT-W88G | fold resistance | - | nucleotide incorporation / radiometric | 3.5
Cc1ccc(S(=O)(=O)Nc2ccc(Cc3nc4ccccc4[nH]3)cc2)cc1 | gp120 + CD4 | - | HIV-1 | - | IC50 | - | ELISA / entry | 0.02334 µM
O=C1N/C(=N\N=C\c2ccc(Cl)c([N+](=O)[O-])c2)S/C1=C/c1ccc(-c2ccc(Cl)c(C(=O)O)c2)o1 | Rev:RRE | - | HIV-1 | - | IC50 | - | scintillation proximity / radiometric | 1.1 µM
CCOC(=O)C(=O)CC(=O)/C=C/c1cc(-c2ccccc2)cn1Cc1ccc(F)cc1 | RNase H | - | HIV-1 | Q475A | IC50 | - | substrate cleavage / fluorescence | >100 µM
Nc1nc2c(ncn2[C@H]2CC[C@@H](COP(=O)(O)OP(=O)(O)OP(=O)(O)O)O2)c(=O)[nH]1 | Reverse transcriptase | - | HIV | RT-T215Y | fold resistance | - | - | 1.43
O=[N+]([O-])c1ccccc1S(=O)(=O)Nc1ccc(Cc2nc3ccccc3[nH]2)cc1 | gp120 + CD4 | - | HIV-1 | - | IC50 | - | ELISA / entry | 0.0215 µM
O=C(Nc1cn2ccn(Cc3cccc(Cl)c3)c(=O)c2c(O)c1=O)C1CCCC1 | Integrase | - | HIV-1 | - | IC50 | - | ELISA | 0.01–0.1 µM
NC(=O)c1cc(S(=O)(=O)Nc2nc3ccccc3c(=O)[nH]2)c(SCOc2ccccc2)cc1Cl | Integrase | - | HIV | - | IC50 | - | strand transfer | >100 µM
CCN1c2ncc(CCOc3ccc4cc(CC(=O)O)ccc4c3)cc2C(=O)N(C)c2cccnc21 | Reverse transcriptase | - | HIV-1 | RT-K103N Y181C | fold resistance | - | nucleotide incorporation / radiometric | >10